Results of unrelated studies side by side (data: NIAID ChemDB).

All rows: host cell toxicity; cells: MT-2; measure: CC50

CCn: concentration that lowers growth or viability of the cells by n%. An empty or dashed field is not shown. Lines come from different laboratories, so protocols vary.

structure	method	result
N#C/C=C/c1cccc(Oc2cc(Nc3nccc(C4CC4)n3)ccc2C#N)c1	-	1.1 µM
CCOc1ccc(N(CC)C(=O)[C@H](Cc2ccccc2)NC(=O)NS(=O)(=O)N[C@@H](Cc2ccccc2)C(=O)N(CC)c2ccc(OCC)cc2)cc1	XTT	33.3 µM
Cc1c(CCO)c(C2CC2)nn1CC(=O)N[C@@H](Cc1ccccc1)C(=O)N(C)c1ccc2nccnc2c1	ATP	>20 µM
Cc1ccc(-c2c([C@H](OC(C)(C)C)C(=O)O)c(C)nc3sc4c(c23)CCCC4)c(O)c1	-	>20 µM
COCc1ccc(Nc2nnc(Cc3c(Cl)cccc3Cl)o2)cc1Cl	MTT	33 µM
O=C(C(=O)N1CCN(C(=O)c2ccccc2F)CC1)c1c[nH]c2ccccc12	XTT	>10 µM
Cc1nn(CCO)c(C2CC2)c1CC(=O)N[C@@H](Cc1ccccc1)C(=O)N(C)c1ccc2c(c1)OCO2	ATP	>20 µM
Clc1cc(Cl)cc(Nc2nnc(Cc3c(Cl)cccc3Cl)s2)c1	MTT	64 µM
CCOC(C(=O)O)c1c(C)nc2sc3c(c2c1-c1ccc2c(cnn2C)c1)CCCC3	-	>20 µM
N#Cc1ccc(Nc2ncc(Cc3c(Cl)cccc3Cl)s2)cc1	MTT	>100 µM
CC(=O)OCCc1c(C(F)(F)F)nn(CC(=O)N[C@@H](Cc2ccccc2)C(=O)N(C)c2ccc3c(c2)OCO3)c1C	ATP	>20 µM
CN(C(=O)[C@H](Cc1cc(F)cc(F)c1)NC(=O)c1cccc(C(=O)N[C@@H](Cc2cc(F)cc(F)c2)C(=O)N(C)c2ccc3scnc3c2)c1Cl)c1ccc2scnc2c1	XTT	100 µM
Clc1cccc(Cl)c1Cc1nnc(Nc2ccc(COCc3ccccc3)cc2)o1	MTT	81 µM
COc1ccnc(Nc2ccc(C#N)c(Sc3cccc(C)c3)c2)n1	-	0.47 µM
O=C(C(=O)N1CCN(C(=O)c2ccc(O)cc2)CC1)c1c[nH]c2ccccc12	XTT	>10 µM
Cc1c(CCO)c(C2CC2)nn1CC(=O)N[C@@H](Cc1ccccc1)C(=O)N(C)c1cnc2ccccc2c1	ATP	>20 µM
O=C(C(=O)N1CCN(C(=O)c2ccccc2)CC1)c1c[nH]c2ccc(Cl)cc12	XTT	>10 µM
Cc1ccc(S(=O)(=O)NC(=O)Cc2c(C)nn(CC(=O)N[C@@H](Cc3ccccc3)C(=O)N(C)c3ccc4c(c3)OCO4)c2C2CC2)cc1	ATP	>20 µM
CN(C(=O)[C@H](Cc1cc(F)cc(F)c1)NC(=O)CS(=O)(=O)N[C@@H](Cc1cc(F)cc(F)c1)C(=O)N(C)c1ccc2nccnc2c1)c1ccc2nccnc2c1	XTT	100 µM
Cc1nn(CC(=O)N[C@@H](Cc2ccccc2)C(=O)N(C)c2ccc3c(c2)OCO3)c(CC(C)C)c1CCO	ATP	>20 µM
N#Cc1cc(/C=C/Cl)cc(Oc2cc(Nc3nccc(C4CC4)n3)ccc2C#N)c1	-	1.9 µM
CCOC(C(=O)O)c1c(C)nc2sc3c(c2c1-c1ccc2scnc2c1)CCCC3	-	>20 µM
Cc1ccc(Nc2ncc(Cc3c(Cl)cccc3Cl)o2)cc1	MTT	47 µM
Cc1nc2sc3c(c2c(-c2ccc4[nH]ncc4c2)c1C(OC(C)(C)C)C(=O)O)CCCC3	-	>20 µM
Cc1c(CCO)c(C2CC2)nn1C(C)C(=O)N[C@@H](Cc1ccccc1)C(=O)N(C)c1ccc2c(c1)OCO2	ATP	>20 µM
COc1ccc(N(C)C(=O)C(Cc2ccccc2)NS(=O)(=O)CS(=O)(=O)N[C@@H](Cc2ccccc2)C(=O)N(C)c2ccc(OC)cc2)cc1	XTT	100 µM
COc1ccnc(Nc2ccc(C#N)c(Oc3cccc(/C=C/C#N)c3)c2)n1	-	6.9 µM
COc1ccc(N(C)C(=O)[C@H](Cc2ccccc2)NC(=O)c2ccccc2-c2ccccc2C(=O)N(C)[C@@H](Cc2ccccc2)C(=O)N(C)c2ccc(OC)cc2)cc1	XTT	100 µM
Clc1ccc(Nc2nnc(Nc3c(Cl)cccc3Cl)o2)cc1Cl	MTT	62 µM
O=C(C(=O)N1CCN(C(=O)c2ccc(F)cc2F)CC1)c1c[nH]c2ccccc12	XTT	>10 µM
N#C/C=C/c1cc(Cl)cc(Oc2ccc(OCCN3CCOCC3)cc2OCCn2ccc(=O)[nH]c2=O)c1	MTT	>100 µM
O=C(C(=O)N1CCN(C(=O)c2ccccc2)CC1)c1c[nH]c2cc(Cl)ccc12	XTT	>10 µM
Cc1nc2sc3c(c2c(-c2ccc4cn[nH]c4c2)c1C(OC(C)(C)C)C(=O)O)CCCC3	-	>20 µM
Clc1ccc(Nc2nnc(Cc3c(Cl)cccc3Cl)o2)cc1	MTT	18 µM
O=C(C(=O)N1CCN(C(=O)c2c(F)cccc2F)CC1)c1c[nH]c2ccccc12	XTT	>10 µM
CN(C(=O)[C@H](Cc1cc(F)cc(F)c1)NC(=O)NS(=O)(=O)N[C@@H](Cc1cc(F)cc(F)c1)C(=O)N(C)c1ccc(=O)n(C)c1)c1ccc(=O)n(C)c1	XTT	100 µM
CN(c1nnc(Nc2ccc(C#N)cc2)o1)c1c(Cl)cccc1Cl	MTT	30 µM
O=C(C(=O)N1CCN(C(=O)c2ccccc2)CC1)c1c[nH]c2cccc([N+](=O)[O-])c12	XTT	>10 µM
CN(C(=O)[C@H](Cc1cc(F)cc(F)c1)NC(=O)CN1c2ccccc2N(CC(=O)N[C@@H](Cc2cc(F)cc(F)c2)C(=O)N(C)c2ccc3scnc3c2)S1(=O)=O)c1ccc2scnc2c1	XTT	100 µM